Results: patent US20220346382A1, “COMPOSITION FOR TREATING AND PREVENTING BACTERIAL GROWTH ON A SUBSTRATE” (PETROLIAM NASIONAL BERHAD (PETRONAS), priority 2019, published 2022)

Test: Corrosion rate by weight loss and pitting of carbon steel coupons immersed in the formulations
Conditions: seven days immersion, 35-40° C., weight loss

CSCC[C@@H](N)C(=O)O [MT, D-Methionine]
corrosion rate: 0.03 mm/yr
